From paper PMC11701221, “WhiA transcription factor provides feedback loop between translation and energy production in a genome-reduced bacterium” (Frontiers in Microbiology, 2024)
Construct, isoform or probe ends are uncertain for at least one entry. For some of these results: At least one verdict rests on a figure or table, not on a statement of the authors. Where a protein sequence is shown, tags need not be part of it.

Legend:
[1] = target: T1, Mgal-WhiA (Mycoplasma gallisepticum S6) (UniProt A0A0F6CKV5); experiment: MST; conditions: no ATP; MST: PBS (10 mM Na phosphate pH 7.4, 140 mM NaCl, 3 mM KCl), 0.05% Tween-20, 50 mM imidazole, 50 nM duplex, 20 C; recombinant protein; label: 5' FAM (EMSA) or HEX (MST) on strand 1
T1 sequence (looked up, limits assumed): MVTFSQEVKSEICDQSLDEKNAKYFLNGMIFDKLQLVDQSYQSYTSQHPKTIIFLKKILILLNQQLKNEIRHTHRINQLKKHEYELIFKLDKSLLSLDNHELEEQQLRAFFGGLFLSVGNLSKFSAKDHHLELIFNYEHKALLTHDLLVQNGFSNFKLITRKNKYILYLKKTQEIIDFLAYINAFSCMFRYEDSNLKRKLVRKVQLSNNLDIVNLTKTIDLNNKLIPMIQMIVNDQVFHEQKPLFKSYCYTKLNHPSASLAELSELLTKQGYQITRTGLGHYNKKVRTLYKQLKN

[2] = target: T1, Mgal-WhiA (Mycoplasma gallisepticum S6); experiment: EMSA; conditions: EMSA: 20 mM carbonate pH 9.8, 6% glycerol, 37 C 10 min, gel at 10 C, recombinant protein, label: 5' FAM (EMSA) or HEX (MST) on strand 1
[3] = target: T1, Mgal-WhiA (Mycoplasma gallisepticum S6); experiment: FRET; conditions: with F1 aux duplex; recombinant protein; label: 3' BHQ1 on strand 1

Question: Which Kd [1] does the source give for “AGCGATAAGTTTTACGAATTAAGTCGTTTATTATATAATA (double strand) [Negative control (plsC promoter)]” here?
Answer: > 5 µM

Question: And the Kd ([2]; 1 mM ATP)?
Answer: > 5 µM

Question: What about the Kd ([2]; no ATP) of the same sequence?
Answer: > 5 µM

Question: Does “AAAGATTGCTGATACACCAAAA (double strand) [WhiA-Q3 (core half-site)]” bind [3]?
Answer: binds
